Anti-infective test results gathered from many reports (values: NIAID ChemDB through PubChem).

Shared fields: host cell toxicity; cells: PBMC; endpoint: CC50

Conditions beyond the fields shown may differ between rows.

compound | method | setting | value
O=C(NCCc1ccc2c(n1)NCCC2)Nc1ccc(OC(F)F)cc1 | - | - | 1.9 µM
COc1ccc2nc(Cl)c(/C=C/C(=O)c3cc4ccccc4o3)cc2c1 | MTS | - | 3.4 µM
O=C(O)CCC(CCC(=O)O)(CCC(=O)O)NC(=O)CCC(CCC(=O)NC(CCC(=O)O)(CCC(=O)O)CCC(=O)O)(CCC(=O)NC(CCC(=O)O)(CCC(=O)O)CCC(=O)O)NC(=O)CCCOC(=O)C1(C(=O)OCCCC(=O)NC(CCC(=O)NC(CCC(=O)O)(CCC(=O)O)CCC(=O)O)(CCC(=O)NC(CCC(=O)O)(CCC(=O)O)CCC(=O)O)CCC(=O)NC(CCC(=O)O)(CCC(=O)O)CCC(=O)O)C2c3cc4c5c6c3-c3c(cc7c8c3C6C3c6c-5c(cc5ccc9cc(c-8c3c9c65)C7)C4)C21 | MTT | - | >100 µM
CCOC(=O)[C@H](C)NP(=O)(OC[C@@H]1OC[C@H](n2cnc3c(OC)nc(N)nc32)O1)Oc1ccccc1 | MTT | - | >100 µM
CCCCCCCCCCCN1C=Cc2cc(OC)c(O)c3c2c1cc[n+]3CCCCCCCCCCC | - | - | 3.3 µM
CCn1cc(C(=O)O)c(=O)c2cc(F)c(N3CCN(c4ccccc4OC)CC3)c(OC(F)F)c21 | - | - | 16.3 µM
CC(C)(C)C(=O)Nc1cccc(CCNC(=O)Nc2cccc(F)c2)n1 | - | - | 21 µM
Cc1cn([C@H]2C[C@H](N=[N+]=[N-])[C@@H](CO)O2)c(=O)[nH]c1=O | absorbance | - | 1360 µM
Nc1nc(N)c2ncn([C@H]3CO[C@@H](CO)O3)c2n1 | MTT | - | >100 µM
CC(C)(C)[Si](C)(C)O[C@H]1[C@H](CO)O[C@@H](n2ccc(N)nc2=O)C1(F)F | - | - | >100 µM
COc1ccc2nc(Cl)c(/C=C/C(=O)c3cc(C)oc3C)cc2c1 | MTS | - | >100 µM
Nc1nc2c(ncn2[C@@H]2OC[C@H](CCP(=O)(O)O)C23CC3)c(=O)[nH]1 | - | - | >100 µM
O=C(NCCc1ccccc1)NCCc1ccc2c(n1)NCCC2 | - | - | 50 µM
NC(=O)C[C@H](NC(=O)CNC1c2ccc3cc4c5c6c(cc7ccc8cc9cc1c1c9c9c8c7c6c9c6c1c2c3c56)C4)C(=O)O | trypan blue | - | >280 µM
OC[C@@H]1C[C@H](n2cnc3c(=S)nc[nH]c32)[C@@H](O)[C@H]1O | - | - | >100 µM
CCCCCCCCCCCCCCCCOCCCOP(=O)(NCC(=O)OC)OC[C@@H]1OC[C@H](n2cc(C)c(=O)[nH]c2=O)O1 | MTT | - | >100 µM
Nc1nc2c(ncn2[C@@H]2O[C@H](CO)C(F)(F)C2(F)F)c(=O)[nH]1 | - | - | >100 µM
COc1cc2cc[n+](C)c3c2c(c1OC)NC=C3 | - | - | 31.6 µM
CCCCCc1ccc(-c2cn(C/C(C)=C/CP(=O)(OCOC(=O)OC(C)C)OCOC(=O)OC(C)C)nn2)cc1 | absorbance | - | 47.8 µM
O=C1CCC(=O)N1CCCCCCc1ccc2c3ccccc3c3ccccc3c2c1 | trypan blue | - | 1.2 µM
CC(C)c1c(Cc2ccccc2)n(COCc2ccccc2)c(=O)[nH]c1=O | XTT | - | 166.6 µM
CC(C)OC(=O)[C@H](C)NP(=O)(OC[C@H]1O[C@@H](n2ccc(=O)[nH]c2=O)C(F)(F)C1(F)F)Oc1ccccc1 | - | - | >100 µM
Cc1cn([C@H]2CO[C@@H](CO[P@@]3(=O)OCC[C@@H](c4ccccc4)O3)O2)c(=O)[nH]c1=O | MTT | - | >100 µM
O=C(O)CCN(CCN(CC(=O)O)Cc1cnc2c(O)cccc2c1)CC(=O)O | MTT | - | >50 µM
Nc1ccn([C@@H]2C=C(F)[C@H](CO)O2)c(=O)n1 | - | - | >100 µM
C=Cn1cc(C(=O)O)c(=O)c2cc(N)c(N3CCN(c4ccccn4)CC3)cc21 | - | - | 1.14 µM
OC[C@@H]1C[C@H](F)[C@H](n2cnc3c(Br)ncnc32)O1 | - | - | >80 µM
N#C[C@@H]1[C@H](O)[C@@H](n2cnc3c(N)ncnc32)O[C@H]1CO | - | - | >100 µM
Cc1noc(C)c1-c1ccc2c(c1)N(c1cc(N)c(F)cc1F)CCC2=O | luminescence | - | >1 µM
N#CC1=C[C@@H](n2ccc(N)nc2=O)O[C@H]1CO | - | - | >100 µM
CCOC(=O)c1cn(C/C(C)=C/CP(=O)(OCOC(=O)OC(C)C)OCOC(=O)OC(C)C)nn1 | absorbance | - | 67.5 µM
CCCN1C=Cc2nccc3cc(OC)c(OC)c1c23 | - | - | 4.3 µM
Cc1cn([C@@H]2O[C@H](CO)C(F)(F)C2(F)F)c(=O)[nH]c1=O | - | - | >100 µM
COc1ccc(/C=C/c2cc(Cl)c3ccccc3n2)c(OC)c1 | MTT | - | 10.46 µM
Nc1nccc2c1ncn2[C@@H]1C[C@H](CO)[C@@H](O)[C@H]1O | - | - | 9.85 µM
C=C(C)[C@@H]1CC[C@]2(C(=O)NCCCCCCCC(=O)N[C@@H](CC(C)C)[C@@H](O)CC(=O)O)CC[C@]3(C)[C@H](CC[C@@H]4[C@@]5(C)CC[C@H](O)C(C)(C)[C@@H]5CC[C@]43C)[C@@H]12 | - | - | >10 µM
Nc1ncnc2c1ncn2[C@H]1O[C@@H](CO)[C@H](O)C1(F)F | - | - | >100 µM
C[C@@H](NC(=O)c1nc(-c2ccc(C(=O)OCc3ccccc3)cn2)[nH]c(=O)c1O)C1CCCCC1 | absorbance | - | <0.4 µM
OC[C@@H]1C[C@H](F)[C@H](n2cnc3c(Cl)ncnc32)O1 | - | - | >80 µM
O=[N+]([O-])c1ccc(/C=C/c2ccc(N=Nc3ccc(/C=C/c4ccc([N+](=O)[O-])cc4S(=O)(=O)O)c(S(=O)(=O)O)c3)cc2S(=O)(=O)O)c(S(=O)(=O)O)c1 | - | - | >100 µM
CCCn1ccc2c(NC(=O)NCCc3ccc4c(n3)NCCC4)cccc21 | - | - | 0.53 µM
Cn1cc(C(=O)O)c(=O)c2cc(F)c(N3CC=C(c4ccccc4)CC3)c(C(F)(F)F)c21 | - | - | 5 µM
CC(C)(C)[Si](C)(C)O[C@H]1[C@H](CO)O[C@H](n2ccc(N)nc2=O)C1(F)F | - | - | >100 µM
Nc1ccn([C@H]2C=C(F)[C@@H](CO)O2)c(=O)n1 | - | - | >100 µM
Nc1ccn([C@@H]2O[C@H](CO)C(F)(F)C2(F)F)c(=O)n1 | - | - | >100 µM
Nc1nccc2c1ncn2[C@@H]1C=C(CO)[C@@H](O)[C@H]1O | - | - | 9.98 µM
CCCCCCCCCCCCCCCCOCCCOP(=O)(C/C=C(\C)Cn1cc(C(N)=O)nn1)OCOC(=O)OC(C)C | absorbance | - | 66.4 µM
Nc1ncnc2c1ncn2[C@@H]1OC[C@H](CCP(=O)(O)O)C12CC2 | - | - | >100 µM
COc1ccc2nc(Cl)c(/C=C/C(=O)c3sccc3Br)cc2c1 | MTS | - | 2.5 µM
COC(=O)[C@H](C)NP(=O)(OC[C@@H]1OC[C@H](n2cc(C)c(=O)[nH]c2=O)O1)Oc1ccc(OC)cc1 | MTT | - | 21.1 µM
Nc1ccn([C@@H]2O[C@H](CO)C=C2F)c(=O)n1 | - | - | 7.3 µM
COc1cccc(NC(=O)NCCc2ccc3c(n2)NCCC3)c1 | - | - | 5 µM
N#CC1=C[C@@H](n2ccc(=O)[nH]c2=O)O[C@H]1CO | - | - | >100 µM
CCCCCCCCCCCCCCCCCCOCCOP(=O)(N[C@@H](C)C(=O)OC)OC[C@@H]1OC[C@H](n2cc(C)c(=O)[nH]c2=O)O1 | MTT | - | 61.4 µM
CC(C)=CC[C@@H](O)C1=CC(=O)c2c(O)ccc(O)c2C1=O | trypan blue | - | 1.9 µM
COc1cc2ccnc3c2c(c1O)N(C)C=C3 | - | - | 1.1 µM
COc1nc(N)nc2c1ncn2[C@H]1CO[C@@H](CO)O1 | MTT | - | >100 µM
C=Cn1cc(C(=O)O)c(=O)c2ccc(N3CCN(c4ccccn4)CC3)cc21 | - | - | 9.11 µM
CCCCCCCCCCCCCCCCOCCCOP(=O)(O)OC[C@@H]1OC[C@H](n2cc(C)c(=O)[nH]c2=O)O1 | MTT | - | 66.19 µM
COc1ncnc2c1ncn2[C@@H]1O[C@H](CO)C[C@@H]1F | - | - | >80 µM
COc1cc2cc[n+](CCC(C)C)c3c2c(c1OC)NC=C3 | - | - | 2.3 µM
O=C(NCCc1ccc2c(n1)NCCC2)NC1CCCCC1 | - | - | 50 µM
N#CC1=C[C@@H](n2cnc3c(=O)[nH]cnc32)O[C@H]1CO | - | - | >100 µM
Cc1cn([C@H]2CO[C@@H](COP(=O)(N[C@@H](C)C(=O)OCc3ccccc3)Oc3ccccc3Cl)O2)c(=O)[nH]c1=O | MTT | - | >100 µM
CCCCc1cn(-c2cccc(S(=O)(=O)Nc3cccc4cnccc34)c2)nn1 | fluorescence | 72 h | 63 µM
CCOC(=O)c1cc(O)c(O)c(O)c1 | MTS | - | >200 µM
CC(C)OC(=O)[C@H](C)NP(=O)(OC[C@H]1O[C@@H](n2ccc(N)nc2=O)C(F)(F)C1(F)F)Oc1ccccc1 | - | - | >100 µM

A second listing of 5 rows from above:

compound | method | setting | value
Nc1ncnc2c1ncn2[C@@H]1OC[C@H](CCP(=O)(O)O)C12CC2 | - | - | >100 µM
CCCN1C=Cc2nccc3cc(OC)c(OC)c1c23 | - | - | 4.3 µM
N#CC1=C[C@@H](n2ccc(=O)[nH]c2=O)O[C@H]1CO | - | - | >100 µM
CCCn1ccc2c(NC(=O)NCCc3ccc4c(n3)NCCC4)cccc21 | - | - | 0.53 µM
Cc1cn([C@H]2CO[C@@H](COP(=O)(N[C@@H](C)C(=O)OCc3ccccc3)Oc3ccccc3Cl)O2)c(=O)[nH]c1=O | MTT | - | >100 µM

Blank or dashed fields: not listed here. CCn: concentration that lowers growth or viability of the cells by n%.